According to PubChem BioAssay AID485341 (National Center for Advancing Translational Sciences (NCATS), 2010):
The list shows a part of the results, in another mix than the full data. The source made the active and inactive calls. Calls come from the whole dose curve; as a rule, active = well fitted inhibition curve with a large enough effect; inconclusive = small, poorly fitted or top-dose-only effect; inactive = no such curve, though single readings can be large or run the other way. A call without a number means that no potency is given here.
Note: nearly all actives have a fitted effect of over 20% in size.
Potency is the fitted concentration of half-maximal effect.

Amino acid sequences for entries named in this document (tags omitted).
UniProt P00811, whole entry: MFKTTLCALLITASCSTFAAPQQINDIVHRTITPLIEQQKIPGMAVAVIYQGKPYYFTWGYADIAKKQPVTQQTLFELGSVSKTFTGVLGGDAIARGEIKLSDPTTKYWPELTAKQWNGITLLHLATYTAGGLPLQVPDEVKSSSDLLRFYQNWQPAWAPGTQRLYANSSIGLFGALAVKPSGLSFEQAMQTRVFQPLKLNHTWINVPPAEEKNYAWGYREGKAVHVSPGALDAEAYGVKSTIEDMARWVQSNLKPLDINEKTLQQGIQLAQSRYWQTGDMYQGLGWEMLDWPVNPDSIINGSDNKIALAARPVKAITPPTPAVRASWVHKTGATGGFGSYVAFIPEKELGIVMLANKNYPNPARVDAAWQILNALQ

The compounds below were run against Beta-lactamase (Escherichia coli (strain K12)) (UniProt P00811) (assay: qHTS Inhibitors of AmpC Beta-Lactamase (assay without detergent)). Settings: AmpC nitrocefin hydrolysis, absorbance 480 nm, 0.0001% Triton; series mostly up to 57.1 µM.
For CCOP(C)(=S)SCC(=O)NC(C)C(=O)O (centres undefined), the activity change, negative = inhibition was “inactive”.
In the case of CCN(CC)CCCOC(=O)C(O)(c1ccccc1)c1ccccc1, the activity change, negative = inhibition was “inactive”.
With O=[N+]([O-])c1ccc2c(c1)C=Nc1ccccc1O2 the activity change, negative = inhibition was “inactive”.
For CC(C)(C)c1ccc(OP(C)(=O)Nc2ccc(SC(F)(F)F)cc2)cc1 (centres undefined), the activity change, negative = inhibition was “inactive”.
With Cc1cccc(C)c1OP(C)(N)=O (centres undefined) the activity change, negative = inhibition was “inactive”.
For O=[N+]([O-])c1cc([N+](=O)[O-])c(Nc2cccnc2)c([N+](=O)[O-])c1, the activity change, negative = inhibition was “inactive”.
With Cc1cc(C)cc(OP(C)(N)=O)c1 (centres undefined) the activity change, negative = inhibition was “inactive”.
With COc1ccccc1OP(C)(=O)Nc1cc(Cl)ccc1C (centres undefined) the activity change, negative = inhibition was “inactive”.
COc1ccc(OP(C)(=O)Nc2cccc(F)c2)cc1 (centres undefined) was tested, and the activity change, negative = inhibition was “inactive”.
With COc1ccccc1OP(C)(=O)Nc1ccc(C)cc1 (centres undefined) the activity change, negative = inhibition was “inactive”.
With Cc1ccc(NP(C)(=O)Oc2ccccc2)c(C)c1 (centres undefined) the activity change, negative = inhibition was “inactive”.
For CCOC(=O)c1ccc(NP(C)(=O)Oc2ccccc2)cc1 (centres undefined), the activity change, negative = inhibition was “inactive”.
COc1ccccc1OP(C)(=O)Nc1ccc(C)c(C)c1 (centres undefined) was tested, and the activity change, negative = inhibition was “inactive”.
With COc1ccc(OP(C)(=O)Nc2ccccc2Br)cc1 (centres undefined) the activity change, negative = inhibition was “inactive”.
In the case of Cc1cc(C)cc(OP(C)(=O)Nc2cccc(C(F)(F)F)c2)c1 (centres undefined), the activity change, negative = inhibition was “inactive”.
CP(=O)(Nc1ccc(Cl)cc1Cl)Oc1ccccc1 (centres undefined) was tested, and the activity change, negative = inhibition was “inactive”.
For CP(=O)(OCCOc1ccccc1)OCCOc1ccccc1, the activity change, negative = inhibition was “inactive”.
For Cc1nc2ccc3ccccc3c2o1.O=[N+]([O-])c1cc([N+](=O)[O-])c(O)c([N+](=O)[O-])c1, the activity change, negative = inhibition was “inactive”.
COc1ccc(OP(C)(=O)Nc2ccccn2)cc1 (centres undefined) was tested, and the activity change, negative = inhibition was “inactive”.
In the case of CN(C)CCOC(=O)C(O)(c1ccccc1)C1CCCC1 (centres undefined), the activity change, negative = inhibition was “inactive”.
In the case of COc1ccccc1OP(C)(=O)Nc1ccc(Br)cc1 (centres undefined), the activity change, negative = inhibition was “inactive”.
In the case of CP(=O)(Nc1ccccn1)Oc1ccccc1 (centres undefined), the activity change, negative = inhibition was “inactive”.
COc1ccccc1OP(C)(=O)Nc1ccc(C)cc1C (centres undefined) was tested, and the activity change, negative = inhibition was “inactive”.
CCc1ccc(OP(C)(=O)O)cc1 was tested, and the activity change, negative = inhibition was “inactive”.
For Cc1c(NP(C)(=O)Oc2ccc(C(C)C)cc2)c(=O)n(-c2ccccc2)n1C (centres undefined), the activity change, negative = inhibition was “inactive”.
With O=[N+]([O-])c1cc([N+](=O)[O-])c(Nc2ccccn2)c([N+](=O)[O-])c1 the activity change, negative = inhibition was “inactive”.
With COc1ccccc1OP(C)(=O)Nc1c(C)n(C)n(-c2ccccc2)c1=O (centres undefined) the activity change, negative = inhibition was “inactive”.
In the case of O=C(OCCCN1CCCC1)C(O)(c1ccccc1)C1CCCCC1 (centres undefined), the activity change, negative = inhibition was “inactive”.
For CP(=O)(Oc1ccccc1)N1CCOC1=O (centres undefined), the activity change, negative = inhibition was “inactive”.
CCc1ccc(OP(C)(=O)Nc2cccnc2)cc1 (centres undefined) was tested, and the activity change, negative = inhibition was “inactive”.
For CCN(CC)CC(O)COC(=O)C(O)(c1ccccc1)C1CCCCC1 (centres undefined), the activity change, negative = inhibition was “inactive”.
With COc1ccc(OP(C)(=O)Nc2ccc(Br)cc2)cc1 (centres undefined) the activity change, negative = inhibition was “inactive”.
With CN(C)C(=O)c1c([N+](=O)[O-])cc([N+](=O)[O-])cc1[N+](=O)[O-] the activity change, negative = inhibition was “inactive”.
COc1ccccc1OP(C)(=O)Nc1ccccc1Br (centres undefined) was tested, and the activity change, negative = inhibition was “inactive”.
For CC(C)(C)c1ccc(OP(C)(=O)O)cc1, the activity change, negative = inhibition was “inactive”.
For CP(=O)(Nc1ccc(Cl)cc1)Oc1ccc(F)cc1 (centres undefined), the activity change, negative = inhibition was “inactive”.
For CCOC(=O)c1ccc(NP(C)(=O)Oc2ccc(Cl)cc2)cc1 (centres undefined), the activity change, negative = inhibition was “inactive”.
CP(=O)(OC12CC3CC(CC(C3)C1)C2)OC12CC3CC(CC(C3)C1)C2 was tested, and the activity change, negative = inhibition was “inactive”.
CN(C)CCOC(=O)C(O)(c1ccccc1)C1CCCCC1 (centres undefined) was tested, and the Potency was active: 158 nM.
COc1ccc(NP(C)(=O)Oc2ccccc2OC)cc1 (centres undefined) was tested, and the activity change, negative = inhibition was “inactive”.
COc1ccc(OP(C)(=O)Nc2cccc(Br)c2)cc1 (centres undefined) was tested, and the activity change, negative = inhibition was “inactive”.
In the case of O=[N+]([O-])c1ccc(OP2(=O)COCCO2)cc1 (centres undefined), the activity change, negative = inhibition was “inactive”.
For Cc1cc(-c2cccc3ccccc23)c(C)cn1.O=[N+]([O-])c1cc([N+](=O)[O-])c(O)c([N+](=O)[O-])c1, the activity change, negative = inhibition was “inactive”.
With CP(=O)(Nc1ccc(SC(F)(F)F)cc1)Oc1ccc(F)cc1 (centres undefined) the activity change, negative = inhibition was “inactive”.
For Cc1ccccc1NP(C)(=O)Nc1ccccc1C, the activity change, negative = inhibition was “inactive”.
In the case of CP(=O)(Nc1ccc2c(c1)OCCO2)Oc1ccccc1 (centres undefined), the activity change, negative = inhibition was “inactive”.
In the case of CP(=O)(Nc1ccccc1F)Oc1ccccc1 (centres undefined), the activity change, negative = inhibition was “inactive”.
With CC(C)c1ccc(OP(C)(=O)Nc2ccc(SC(F)(F)F)cc2)cc1 (centres undefined) the activity change, negative = inhibition was “inactive”.
With O=C(OCCN1CCN(CCOCc2ccccc2)CC1)C(O)(c1ccccc1)c1ccccc1 the activity change, negative = inhibition was “inactive”.
In the case of CCOC(=O)c1ccc(NP(C)(=O)Oc2ccc(F)cc2)cc1 (centres undefined), the activity change, negative = inhibition was “inactive”.
In the case of COc1ccc(OP(C)(=O)Nc2ccc(SC(F)(F)F)cc2)cc1 (centres undefined), the activity change, negative = inhibition was “inactive”.
In the case of CP(=O)(Nc1ccccc1)Oc1ccc(F)cc1 (centres undefined), the activity change, negative = inhibition was “inactive”.
In the case of CCCCCOc1ccc(NP(C)(=O)Oc2ccc(Cl)cc2Cl)cc1 (centres undefined), the activity change, negative = inhibition was “inactive”.
For CCN(CC)CCCOC(=O)C(O)(c1ccccc1)C1CCCCC1 (centres undefined), the activity change, negative = inhibition was “inactive”.
